Anti-infective test results gathered from many reports (values: NIAID ChemDB through PubChem).

Common to all: enzyme or target tests; species: HIV-1; target: Reverse transcriptase; method: nucleotide incorporation / radiometric; endpoint: IC50

Lines come from different laboratories, so protocols vary. a–b is a range or a potency band. ICn: concentration for n% inhibition. An empty or dashed field is not shown.

compound | changes | strain or isolate | result
CCN1c2ncc(CCOc3ccc(CCC(=O)O)c4ccccc34)cc2C(=O)Nc2c(C)cc(Cl)nc21 | RT-V106A | - | 0.1–1 µM
Cc1cc(S(N)(=O)=O)ccc1NC(=O)CSc1nnc(CF)n1-c1c(C)cc(C)c2ccccc12 | RT-Y188L | - | >0.1 µM
CCN1c2ncc(CCOc3ccc(-n4nc(C(=O)O)cc4C)cc3C)cc2C(=O)N(C)c2cccnc21 | RT-K103N Y181C | IIIB | >0.1 µM
CCN1c2ncccc2C(=O)N(C)c2ccc(-c3cn[nH]c3C)nc21 | RT-Y188L | - | <1 µM
CCOC(=O)CN(C)C(=O)c1ccc(NC(=O)CSc2nnc(Br)n2-c2ccc(CC)c3ccccc23)c(Cl)c1 | RT-Y181C | - | <0.05 µM
CCN1c2ncccc2C(=O)N(C)c2ccc(-c3cc[nH]c3C#N)nc21 | RT-Y188L | - | <1 µM
CCc1ccc(-n2c(Br)nnc2SCC(=O)Nc2ccc(C(=O)N[C@@H](CO)C(=O)OC)cc2Cl)c2ccccc12 | RT-Y188L | - | <0.05 µM
CCN1c2ncc(CCOc3ccc(C(=O)O)c4c3CCCC4)cc2C(=O)N(C)c2ccc(F)nc21 | - | WT | <0.1 µM
CCc1ccc(-n2c(CF)nnc2SCC(=O)Nc2ccc(C(=O)O)cc2Cl)c2ccccc12 | - | - | <0.05 µM
CCN1c2ncc(CCOc3cccc4c3COC(=O)N4)cc2C(=O)N(C)c2cccnc21 | - | IIIB | <0.05 µM
CCN1c2ncc(CCOc3ccc(-c4cc(C)ccn4)cc3C)cc2C(=O)N(C)c2cccnc21 | RT-K103N Y181C | IIIB | <0.05 µM
O=C(CSc1nnc(Br)n1-c1ccc(C2CC2)cc1C(F)(F)F)Nc1ccc(C(=O)O)cc1Cl | - | - | <0.05 µM
Cc1ccc(-n2c(SCC(=O)Nc3ccc(S(=O)(=O)NCCC(=O)O)cc3Cl)nnc2C(F)F)c2c1CCCC2 | - | - | <0.05 µM
CCN1c2ncccc2C(=O)N(C)c2ccc(-c3cnn(C(C)=O)c3)nc21 | RT-Y181C | - | <1 µM
CCN1c2ncc(CCOc3ccc(C(=O)O)c4ccccc34)cc2C(=O)N(C)c2ccc(F)nc21 | RT-V106A | - | >1 µM
CCN1c2ncc(CCOc3cccc4c3COC(=O)N4CC(=O)O)cc2C(=O)N(C)c2cccnc21 | RT-K103N Y181C | IIIB | >0.1 µM
CCc1ccc(-n2c(SCC(=O)Nc3ccc(S(N)(=O)=O)cc3C)nnc2C(F)F)c2ccccc12 | - | - | <0.05 µM
CCc1ccc(-n2c(SCC(=O)Nc3ccc(C(=O)O)cc3C)nnc2C(F)F)c2ccccc12 | RT-Y188L | - | >0.1 µM
CCN1c2ncccc2C(=O)N(C)c2ccc(-c3c[nH]c(C(=O)O)c3)nc21 | - | WT | >1 µM
CCc1cc(C2CC2)ccc1-n1c(Br)nnc1SCC(=O)Nc1ccc(C(=O)O)cc1Cl | RT-Y188L | - | >0.1 µM
COC(=O)[C@@H](NC(=O)c1ccc(NC(=O)CSc2nnc(Br)n2-c2ccc(C3CC3)c3ccccc23)c(Cl)c1)C(C)C | RT-Y188L | - | 0.05–0.1 µM
CCN1c2ncc(CCOc3cccc4c3CNC(=O)C4)cc2C(=O)N(C)c2cccnc21 | RT-K103N Y181C | IIIB | <0.05 µM
CNS(=O)(=O)c1ccc(NC(=O)CSc2nnc(C(F)F)n2-c2ccc(C)c3c2CCCC3)c(Cl)c1 | RT-Y181C | - | <0.05 µM
CCN1c2ncccc2C(=O)N(C)c2ccc(-c3cc[nH]c3C(C)=O)nc21 | RT-Y181C | - | <1 µM
CCc1ccc(-n2c(Br)nnc2SCC(=O)Nc2ccc(C(=O)NCCOC)cc2Cl)c2ccccc12 | - | - | <0.05 µM
CCN1c2ncccc2C(=O)N(C)c2ccc(-c3ccc[nH]3)nc21 | RT-Y188L | - | >1 µM
CCOC(=O)[C@H](Cc1ccc(O)cc1)NC(=O)c1ccc(NC(=O)CSc2nnc(Br)n2-c2ccc(C3CC3)c3ccccc23)c(Cl)c1 | RT-Y181C | - | <0.05 µM
Cc1cc(S(N)(=O)=O)ccc1NC(=O)CSc1nnc(Br)n1-c1ccc(C)c2c1CCCC2 | RT-Y188L | - | 0.05–0.1 µM
CCN1c2ncc(CCOc3cccc4c3ccc[n+]4[O-])cc2C(=O)N(C)c2ccc(Cl)nc21 | RT-K103N V108I | - | 0.064 µM
CCN1c2ncc(CCOc3ccc4c(c3)COC(=O)N4)cc2C(=O)N(C)c2cccnc21 | - | IIIB | <0.05 µM
CCN1c2ncccc2C(=O)N(C)c2ccc(-c3c[nH]c4ccccc34)nc21 | - | WT | <1 µM
CCN1c2ncc(CCOc3ccc(-c4cc[n+]([O-])cc4)cc3C)cc2C(=O)N(C)c2cccnc21 | - | IIIB | <0.05 µM
Cc1cc(S(N)(=O)=O)ccc1NC(=O)CSc1nnc(CF)n1-c1ccc(C)c2c1CCCC2 | - | - | <0.05 µM
CCN1c2ncc(CCOc3cccc4c3CN(Cc3ccncc3)C4=O)cc2C(=O)N(C)c2cccnc21 | - | IIIB | <0.05 µM
Cc1cc(-c2ccc[n+]([O-])c2)ccc1OCCc1cnc2c(c1)C(=O)N(C)c1cccnc1N2C1CC1 | RT-K103N Y181C | IIIB | >0.1 µM
CCN1c2ncccc2C(=O)N(C)c2ccc(-c3c[nH]c(C(N)=O)c3)nc21 | RT-Y181C | - | <1 µM
CC(C)C[C@H](NC(=O)c1ccc(NC(=O)CSc2nnc(Br)n2-c2ccc(C3CC3)c3ccccc23)c(Cl)c1)C(=O)O | RT-Y181C | - | <0.05 µM
CCOC(=O)c1cc(-c2ccc3c(n2)N(CC)c2ncccc2C(=O)N3C)c[nH]1 | - | WT | <1 µM
CCN1c2ncc(CCOc3ccc(-c4ccc(C)[n+]([O-])c4C)cc3C)cc2C(=O)N(C)c2cccnc21 | RT-K103N Y181C | IIIB | <0.05 µM
COC(=O)[C@@H](NC(=O)c1ccc(NC(=O)CSc2nnc(Br)n2-c2ccc(C3CC3)c3ccccc23)c(Cl)c1)C(C)C | RT-Y188L | - | 0.05–0.1 µM
CCOC(=O)CN(C)C(=O)c1ccc(NC(=O)CSc2nnc(Br)n2-c2ccc(C3CC3)c3ccccc23)c(Cl)c1 | RT-Y181C | - | <0.05 µM
CCN1C(=O)c2cc(CCOc3cccc4c3CNC(=O)N4)cnc2N(CC)c2ncccc21 | - | IIIB | <0.05 µM
CCc1ccc(-n2c(CF)nnc2SCC(=O)Nc2ccc(C(=O)O)cc2Cl)c2ccccc12 | - | - | <0.05 µM
CCN1c2ncc(CCOc3ccc4c(c3)CNC(=O)N4C)cc2C(=O)N(C)c2cccnc21 | RT-K103N Y181C | IIIB | >0.1 µM
NS(=O)(=O)c1ccc(NC(=O)CSc2nnc(Br)n2-c2ccc(C3CC3)cc2OC(F)(F)F)c(Cl)c1 | - | - | <0.05 µM
CCN1c2ncc(CCOc3ccc(NC(=O)CCC(=O)O)cc3C)cc2C(=O)N(C)c2cccnc21 | RT-K103N Y181C | IIIB | 0.05–0.1 µM
Cc1cc(S(N)(=O)=O)ccc1NC(=O)CSc1nnc(Br)n1-c1ccc(F)c2ccccc12 | RT-Y181C | - | >0.1 µM
CCN1c2ncc(CCOc3ccc(NC(=O)CCC(=O)O)c4ccccc34)cc2C(=O)N(C)c2cccnc21 | - | WT | <0.1 µM
Cc1cc(S(N)(=O)=O)ccc1NC(=O)C(C)Sc1nnc(Br)n1-c1c(C)ccc2ccccc12 | - | - | <0.05 µM
CCN1c2ncc(CCOc3ccc(-c4ccc(CC(=O)O)c(C)c4)cc3C)cc2C(=O)N(C)c2cccnc21 | - | IIIB | <0.05 µM
COc1ccc2c(C)ccc(-n3c(Br)nnc3SCC(=O)Nc3ccc(S(N)(=O)=O)cc3Br)c2c1 | RT-Y188L | - | 0.05–0.1 µM
CCc1ccc(-n2c(Br)nnc2SCC(=O)Nc2ccc(C(=O)O)cc2Br)c2ccccc12 | - | - | <0.05 µM
O=C(CSc1nnc(Br)n1-c1cccc2c(OCC3CC3)cccc12)Nc1ccc(C(=O)O)cc1Cl | RT-Y181C | - | >0.1 µM
CCc1ccc(-n2c(Br)nnc2SCC(=O)Nc2ccc(C(=O)O)cc2Cl)c2ccccc12 | RT-Y188L | - | >0.1 µM

For reference, 4 entries again:

compound	changes	strain or isolate	result
CCN1c2ncc(CCOc3ccc(-c4cc(C)ccn4)cc3C)cc2C(=O)N(C)c2cccnc21	RT-K103N Y181C	IIIB	<0.05 µM
Cc1cc(S(N)(=O)=O)ccc1NC(=O)CSc1nnc(Br)n1-c1ccc(F)c2ccccc12	RT-Y181C	-	>0.1 µM
CCOC(=O)CN(C)C(=O)c1ccc(NC(=O)CSc2nnc(Br)n2-c2ccc(C3CC3)c3ccccc23)c(Cl)c1	RT-Y181C	-	<0.05 µM
CCc1ccc(-n2c(Br)nnc2SCC(=O)Nc2ccc(C(=O)N[C@@H](CO)C(=O)OC)cc2Cl)c2ccccc12	RT-Y188L	-	<0.05 µM